Pooled drug test results. Numbers come from NIAID ChemDB, via PubChem.

All rows: growth or infection tests; species: Mycobacterium chelonae

Blank or dashed fields: not listed here. Lines come from different laboratories, so protocols vary. A number after MIC or MFC names an inhibition level or a share of isolates.

CCC1OC(c2ccncc2)=NN1C(C)=O ; method: agar ; read-out: MIC ; result: >100 µg/mL
COc1ccc(/C=C/C2=NN(C(=N)N)C(c3ccc(OC)cc3)C2)cc1 ; method: resazurin ; read-out: MIC ; result: 3.57 µM
Nc1nc(N)c2c(n1)NC(c1ccc3c(c1)OCO3)CC(c1ccc(Cl)cc1)=N2 ; strain: MNT1407 ; method: MTT / broth dilution / absorbance ; setting: clinical isolate ; read-out: MIC ; result: 32 µg/mL
CCCCCCCC1OC(c2ccncc2)=NN1C(C)=O ; method: agar ; read-out: MIC ; result: >100 µg/mL
Nc1nc(N)c2c(n1)NC(c1ccc3c(c1)OCO3)CC(c1ccc(F)cc1)=N2 ; strain: MNT1407 ; method: MTT / broth dilution / absorbance ; setting: clinical isolate ; read-out: MIC ; result: >32 µg/mL
CC(C)N=c1cc2n(-c3ccc(Cl)cc3)c3ccccc3nc-2cc1Nc1ccc(Cl)cc1 ; method: broth dilution ; read-out: MIC50 ; result: ≤0.5 µg/mL
CCCCCCCCCCCCCCCCCCCOC(=O)NC(CCC(=O)O)(CCC(=O)O)CCC(=O)O ; strain: EO-P-1 ; read-out: MIC ; result: 5 µg/mL
Cc1ccccc1/C=C/C1=NN(C(=N)N)C(c2ccccc2C)C1 ; method: resazurin ; read-out: MIC ; result: 3.92 µM
CC1(C)CC[C@]2(C(=O)O)CC[C@]3(C)C(CC[C@@H]4[C@@]5(C)C[C@H](O)CC(C)(C)[C@@H]5CC[C@]43C)[C@@H]2C1 ; method: resazurin ; read-out: MIC ; result: 100 µg/mL
CSc1nc(N)c2c(n1)NC(c1ccc(Cl)cc1)CC(c1ccc3c(c1)OCO3)=N2 ; strain: MNT1407 ; method: MTT / broth dilution / absorbance ; setting: clinical isolate ; read-out: MIC ; result: >32 µg/mL
CCCCCCCCCCCCCCCCCCCC(=O)NC(CCC(=O)O)(CCC(=O)O)CCC(=O)O ; strain: EO-P-1 ; read-out: MIC ; result: 3 µg/mL
CCOC(=O)c1c(-c2ccccc2)c2ccc(Cl)cc2oc1=O ; strain: ATCC 35752 ; method: resazurin ; read-out: MIC90 ; result: >100 µg/mL
CCCCCCCCCCCCCCCCCCCCCCC(=O)NC(C)(CCC(=O)O)CCC(=O)O ; strain: EO-P-1 ; read-out: MIC ; result: 36 µg/mL
COc1ccc(C2=Nc3c(N)nc(N)nc3NC(c3ccc4c(c3)OCO4)C2)cc1 ; strain: MNT1407 ; method: MTT / broth dilution / absorbance ; setting: clinical isolate ; read-out: MIC ; result: >32 µg/mL

Repeating the final 2 entries:

structure	strain	method	setting	read-out	result
CCCCCCCCCCCCCCCCCCCCCCC(=O)NC(C)(CCC(=O)O)CCC(=O)O	EO-P-1	-	-	MIC	36 µg/mL
COc1ccc(C2=Nc3c(N)nc(N)nc3NC(c3ccc4c(c3)OCO4)C2)cc1	MNT1407	MTT / broth dilution / absorbance	clinical isolate	MIC	>32 µg/mL